According to publication PMC3812931 (Journal of medicinal chemistry, 2013):

What was measured:
gp120SF162 (clade B) = gp120SF162 (clade B) (Human immunodeficiency virus type 1 group M subtype B, UniProt P19550); assay: Competitive ELISA against sCD4 on gp120SF162; format: binding, HIV-1
gp120CN54 (clade C) = assay: Competitive ELISA against sCD4 on gp120CN54; format: binding, HIV-1; settings: oxidation of thioether in 9 to sulfoxide

SMILES | affinity for the SF162 strain reduced by a factor, relative to 9 (gp120SF162 (clade B); oxidation of thioether in 9 to sulfoxide) | drop in affinity for gp120CN54 relative to 9 (gp120CN54 (clade C)) | IC50 (gp120SF162 (clade B); SEM) [nM]
CC(C)C[C@@H]1NC(=O)CNC(=O)[C@H](CC(C)C)NC(=O)[C@H](CO)NC(=O)[C@H](CCCCN)NC(=O)[C@@H]2CSSC[C@@H](C(=O)N[C@H](C(N)=O)C(C)C)NC(=O)[C@H](C)NC(=O)[C@@H]3CSSC[C@H](NC(=O)[C@H](Cc4ccccc4)NC(=O)[C@H](Cc4c[nH]cn4)NC(=O)[C@H](CC(C)C)NC(=O)[C@H](CC(N)=O)NC(=O)CCSSC[C@H](NC(=O)[C@H](CCCNC(=N)N)NC(=O)CNC(=O)[C@H](CC(C)C)NC1=O)C(=O)N[C@@H](C)C(=O)N1CCC[C@@H]1C(=O)N[C@@H]([C@@H](C)O)C(=O)N[C@@H](Cc1ccc(OCC[S+]([O-])CCO)cc1)C(=O)N3)C(=O)N[C@@H](CCC(N)=O)C(=O)N[C@@H](CC(C)C)C(=O)N[C@@H](CCCNC(=N)N)C(=O)N2 (stereo partly drawn) [compound 15] | 29 | over 300 fold | –
CC(C)C[C@@H]1NC(=O)CNC(=O)[C@H](CC(C)C)NC(=O)[C@H](CO)NC(=O)[C@H](CCCCN)NC(=O)[C@@H]2CSSC[C@@H](C(=O)N[C@H](C(N)=O)C(C)C)NC(=O)[C@H](C)NC(=O)[C@@H]3CSSC[C@H](NC(=O)[C@H](Cc4ccccc4)NC(=O)[C@H](Cc4c[nH]cn4)NC(=O)[C@H](CC(C)C)NC(=O)[C@H](CC(N)=O)NC(=O)CCSSC[C@H](NC(=O)[C@H](CCCNC(=N)N)NC(=O)CNC(=O)[C@H](CC(C)C)NC1=O)C(=O)N[C@@H](C)C(=O)N1CCC[C@@H]1C(=O)N[C@@H]([C@@H](C)O)C(=O)N[C@@H](Cc1ccc(OC[C@@H]4CCCN4)cc1)C(=O)N3)C(=O)N[C@@H](CCC(N)=O)C(=O)N[C@@H](CC(C)C)C(=O)N[C@@H](CCCNC(=N)N)C(=O)N2 [compound 10] | – | – | 5.28 ± 0.46
